Results of unrelated studies side by side (data: NIAID ChemDB).

Shared fields: tests in culture; agent: Rhinovirus; read by: cytopathic effect; read-out: EC50

Lines come from different laboratories, so protocols vary. An empty or dashed field is not shown. ECn is the concentration giving n% inhibition of infection, replication or growth.

structure | strain or isolate | cell line | result
N#Cc1ccc(C2CCc3cc(C#N)ccc3O2)cc1 | TYPE 1B | HeLa | 0.32 µM
CCOC(=O)c1cc(Cl)c(OCCCCC(=O)c2ccc(Cl)cc2)c(Cl)c1 | Serotype 2 | HeLa | 5.5 µM
O[C@@H](c1nc2ccc(Cl)cc2[nH]1)[C@@H](O)c1nc2ccc(Cl)cc2[nH]1 | Serotype 42 | WI-38 | 100 µg/mL
CSc1nsc(-c2ccc(OCCCc3ccccc3)cc2)c1C#N | Serotype 72 (group A) | HELA-OHIO | >20 µM
COc1ccc2nc(C[C@@H](O)c3nc4ccc(OC)cc4[nH]3)[nH]c2c1 | Serotype 1A | WI-38 | 10 µg/mL
CSc1ccc(C(=O)CCCCOc2ccc(C3=NCCO3)cc2)cc1 | Serotype 14 | HeLa | 5.1 µM
O=C1CC(CO)=NN1c1ccccc1 | Serotype 13 | WI-38 | 1.8 µM
Cc1c(-c2ccccc2)n(-c2cccc(F)c2)c2ccc(C(C)C)cc2c1=O | 29/5582 | HELA-OHIO | 0.08 µg/mL
N#Cc1ccc(OCCCCC(=O)c2ccc(Cl)cc2)cc1 | Serotype 14 | HeLa | >319 µM
CCn1c2c(c(=O)c3cc(C(C)C)ccc31)Cc1ccccc1-2 | TYPE 1B/B632 | HELA-OHIO | 0.3 µg/mL
CCOc1nc2ccc(OCCC3CCN(c4ccc(C)nn4)CC3)cc2o1 | Serotype 2 | MRC-5 | 0.003 µg/mL
CC(=O)c1ccoc1CCCOc1c(C)cc(-c2noc(C)n2)cc1C | 15 serotype mixtures | HeLa | <1.9 µM
CS(=O)(=O)c1ccc(NCc2ccc(Cl)cc2)nc1 | TYPE 2 | HeLa | 3.1 µg/mL
COc1ccc(C(=O)CCCCOc2ccc(C3=NCCO3)cc2)cc1 | Serotype 2 | HeLa | >283 µM
CCS(=O)(=O)c1ccc(NCc2ccc(Cl)c(Cl)c2)nc1 | TYPE 2 | HeLa | >10 µg/mL
Cc1cc(CCCCCCCOc2ccc(C3=NCCO3)cc2)on1 | Serotype 2 | HeLa | 2.3 µM
CSc1nsc(-c2ccc(OCCCCOc3ccc([N+](=O)[O-])cc3)cc2)c1C#N | Serotype 39 (group B) | HELA-OHIO | >0.5 µM
Cc1ccc(Cc2ccc(S(C)(=O)=O)cn2)cc1 | TYPE 1A | HeLa | 5 µg/mL
Cc1cc(CCCCCCCOc2ccc(C3=NCCO3)cc2)on1 | TYPE 2 | HeLa | 2.35 µM
CCOc1cnc2cc(OCCC3CCN(c4ccc(C)nn4)CC3)ccc2n1 | Serotype 14 | MRC-5 | 0.012 µg/mL
C=CCc1nc(C)n2c(=O)[nH]c(NC(C)=O)nc12 | TYPE 9 | WI-38 | >200 µg/mL
Cc1nc(-c2cc(C)c(OCCCc3cc(C4CC4)no3)c(C)c2)no1 | Serotype 41 | HeLa | 0.142 µg/mL
Cc1ccc(C(=O)CCCCOc2ccc(C3=N[C@@H](C)CO3)cc2)s1 | TYPE 2 | HeLa | 2.8 µM
CSc1nsc(-c2ccc(OCCCOc3ccccc3)cc2)c1C#N | Serotype 51 (group B) | HELA-OHIO | >20 µM
Cc1ccc(C(=O)CCCCCCOc2ccc(C3=NCCO3)cc2)s1 | TYPE 14 | HeLa | 1.34 µM
CC(=O)c1cc(CCCOc2c(C)cc(-c3noc(C)n3)cc2C)co1 | Serotype 14 | HeLa | 0.3 µM
COC(=O)c1cc(CCCOc2c(C)cc(-c3noc(C)n3)cc2C)on1 | Serotype 22 | HeLa | 0.008 µg/mL
NS(=O)c1ncnc2c1ncn2[C@H]1C[C@H](O)[C@@H](CO)O1 | TYPE 1A |  | >320 µM
C=CCc1ncn2c(=O)[nH]c(NC(C)=O)nc12 | TYPE 1A | WI-38 | >200 µg/mL
Cc1ccc(C(=O)CCCCCCOc2ccc(C3=N[C@@H](C)CO3)cc2)s1 | TYPE 14 | HeLa | 0.26 µM
CCOC(=O)c1ccc(OCCC2CCN(c3ccc(C)nn3)CC2)cc1 | Serotype 59 | WI-38 | <0.1 µg/mL
CCc1nc(-c2cc(C)c(OCCCc3cc(COC)no3)c(C)c2)no1 | Serotype 50 | HeLa | 0.027 µg/mL
Cc1nc(Cc2ccccc2)c2[nH]c(=S)[nH]c(=O)n12 | TYPE 1A | WI-38 | >100 µg/mL
Cc1ccc(C(=O)CCCCCCOc2ccc(C3=NC(C)(C)CO3)cc2)s1 | TYPE 14 | HeLa | 0.27 µM
CSc1nsc(-c2ccc(OCCOc3ccc([N+](=O)[O-])cc3)cc2)c1C#N | Serotype 51 (group B) | HELA-OHIO | >2 µM
c1cc(C2CCc3cc(C4=NCCO4)ccc3O2)ccc1C1=NCCO1 | TYPE 1B | HeLa | 1.79 µM
Nc1ccn([C@@H]2C=C(CO)[C@@H](O)[C@H]2O)c(=O)n1 | TYPE 1A | WI-38 | 10 µg/mL
COc1ccc2nc([C@@H](O)[C@@H](O)c3nc4ccc(OC)cc4[nH]3)[nH]c2c1 | Serotype 42 | WI-38 | 10 µg/mL
CSc1nsc(-c2ccc(OCCOc3ccc(C#N)cc3)cc2)c1C#N | Serotype 89 (group B) | HELA-OHIO | >2 µM
Cc1ccc(C(=O)CCCCOc2ccc(C3=NCCO3)cc2)cc1C | Serotype 14 | HeLa | 57 µM
CS(=O)(=O)c1ccc(Cc2ccc(Cl)c(Cl)c2)nc1 | TYPE 13 | HeLa | >10 µg/mL
CCSc1nc2ccc(OCCC3CCN(c4nnc(C)s4)CC3)cc2o1 | Serotype 2 | MRC-5 | 0.061 µg/mL
Cc1ccc(C(=O)CCCCOc2ccc(C3=NCCO3)cc2)s1 | Serotype 2 | HeLa | 1.3 µM
CS(=O)(=O)c1ccc(Oc2ccc(C(=O)c3ccccc3)cc2)nc1 | TYPE 21 | HeLa | >10 µg/mL
COc1ccc2nc([C@@H](O)[C@H](O)c3nc4ccc(OC)cc4[nH]3)[nH]c2c1 | Serotype 42 | WI-38 | 10 µg/mL
Cc1ccc(C(=O)CCCCOc2ccc(C3=N[C@H](C)CO3)cc2)s1 | TYPE 2 | HeLa | >13 µM
N#Cc1ccc2c(c1)CCC(c1ccc(Cl)cc1)O2 | TYPE 1B | HeLa | 0.03 µM
CSc1nc2ccc(OCCC3CCN(c4ccc(C)nn4)CC3)cc2o1 | Serotype 2 | MRC-5 | 0.099 µg/mL
NS(=O)(=O)c1ncnc2c1ncn2[C@@H]1O[C@H](CO)[C@@H](O)[C@@H]1O | TYPE 1A |  | >320 µM
Cc1cc(CCCCCOc2c(Cl)cc(C3=NCCO3)cc2Cl)on1 | Serotype 14 | HeLa | 1.2 µM
NS(=O)(=O)c1ncnc2c1ncn2[C@H]1C[C@H](O)[C@@H](CO)O1 | TYPE 1A |  | >320 µM
CCOc1nc2ccc(OCCC3CCN(c4nnc(C)c(C)n4)CC3)cc2o1 | Serotype 2 | MRC-5 | >0.25 µg/mL
Cc1c(-c2ccccc2)n(-c2ccc(F)cc2)c2ccc(C(C)C)cc2c1=O | 21/47 | HELA-OHIO | 0.067 µg/mL
CCOC(=O)c1ccc(OCCOc2ccc(-c3snc(SC)c3C#N)cc2)cc1 | Serotype 14 (group A) | HELA-OHIO | >2 µM
c1ccc2c(c1)CCC(c1ccc(C3=NCCO3)cc1)O2 | TYPE 1B | HeLa | 3.58 µM

5 of the rows above, restated:

structure | strain or isolate | cell line | result
Cc1ccc(C(=O)CCCCCCOc2ccc(C3=NC(C)(C)CO3)cc2)s1 | TYPE 14 | HeLa | 0.27 µM
CS(=O)(=O)c1ccc(Oc2ccc(C(=O)c3ccccc3)cc2)nc1 | TYPE 21 | HeLa | >10 µg/mL
CSc1nc2ccc(OCCC3CCN(c4ccc(C)nn4)CC3)cc2o1 | Serotype 2 | MRC-5 | 0.099 µg/mL
NS(=O)(=O)c1ncnc2c1ncn2[C@H]1C[C@H](O)[C@@H](CO)O1 | TYPE 1A |  | >320 µM
CS(=O)(=O)c1ccc(Cc2ccc(Cl)c(Cl)c2)nc1 | TYPE 13 | HeLa | >10 µg/mL